Results deposited as PubChem BioAssay AID624099 (ICCB-Longwood, 2012).

Test: 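Host factors E2 relies on to silence an HPV18 LCR reporter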 (primary screen)
Cells: human C33A cervical carcinoma cells (HPV-negative) stably expressing BPV1 E2 and an HPV18 LCR luciferase reporter
Reagent: siRNA pool against human genes, 40 nM
Duration: 72 h
Detection: 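Per-well luciferase luminescence, z-scored on each plate against the plate mean and SD with control wells left out, then averaged across three replicate plates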
Reading the numbers: mean z-score and z-score: higher = stronger reporter signal, weaker E2 silencing
Active means: 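Hit if mean z-score reaches 2 and two or more of three replicate z-scores also reach 2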
Shown is one part, drawn at random, of about 21,000 reagents tested. 497 of all reagents (2.4%) count as active. 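Higher z means weaker E2 silencing; only reporter increases were scored, and knock-downs that hurt cell survival may mask genuine repressor factors.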

| gene symbol | mean z-score | z-score, replicate A | z-score, replicate B | z-score, replicate C | activity call |
| --- | --- | --- | --- | --- | --- |
| MT-ND6 | -0.61 | -0.41 | -0.74 | -0.68 | inactive |
| LOC388205 (retired record) | -0.21 | -0.21 | -0.61 | 0.19 | inactive |
| LAMTOR1 | 0.23 | 0.23 | 0.14 | 0.31 | inactive |
| FHL2 | -2.12 | -2.14 | -1.91 | -2.31 | inactive |
| CHURC1 | -1.04 | -1.03 | -1.32 | -0.77 | inactive |
| FBXW4 | 0.64 | 0.57 | 0.55 | 0.79 | inactive |
| PUM2 | 0.95 | 0.56 | 0.94 | 1.35 | inactive |
| OR4C11 | 0.72 | 0.47 | 0.85 | 0.84 | inactive |
| SRGAP3 | -0.87 | -0.9 | -0.86 | -0.85 | inactive |
| LINC00639 | -1.14 | -0.93 | -1.28 | -1.2 | inactive |
| S1PR1 | -0.62 | -0.41 | -0.41 | -1.05 | inactive |
| CHRDL1 | -0.76 | -0.87 | -0.61 | -0.79 | inactive |
| SORL1 | -2.36 | -2.37 | -2.24 | -2.45 | inactive |
| NOP16 | 0.02 | 0.18 | -0.51 | 0.39 | inactive |
| BBC3 | -0.44 | -0.44 | -0.43 | -0.44 | inactive |
| MYT1 | 0.27 | 0.16 | 0.53 | 0.13 | inactive |
| LCN2 | 0.23 | 0.19 | 0.2 | 0.28 | inactive |
| C1QTNF2 | 0.31 | 0.33 | 0.74 | -0.15 | inactive |
| TTC41P | -0.49 | -0.64 | -0.22 | -0.6 | inactive |
| CCNB3 | 0.42 | 0.3 | 0.5 | 0.45 | inactive |
| KRTAP12-3 | 0.3 | 0.25 | 0.2 | 0.46 | inactive |
| SLC17A4 | -1.19 | -1.09 | -1.31 | -1.17 | inactive |
| FOXC2 | -0.15 | -0.34 | 0.31 | -0.41 | inactive |
| PAPPA | 1.02 | 0.62 | 1.07 | 1.38 | inactive |
| GNG4 | -0.33 | -0.43 | -0.37 | -0.19 | inactive |
| FUT7 | 0.2 | 0.31 | 0.06 | 0.22 | inactive |
| B3GLCT | -0.14 | -0.1 | -0.33 | 0 | inactive |
| PTCRA | 1.24 | 1.26 | 1.1 | 1.35 | inactive |
| FSD2 | 0.43 | 0.48 | 0.61 | 0.19 | inactive |
| CHST4 | -0.09 | 0.17 | -0.14 | -0.31 | inactive |
| AKAP5 | -0.09 | -0.23 | -0.03 | 0 | inactive |
| KNSTRN | -0.89 | -1.08 | -0.9 | -0.69 | inactive |
| SLC38A12 | 0.24 | -0.15 | 0.15 | 0.73 | inactive |
| STIL | 0.66 | 0.42 | 0.72 | 0.84 | inactive |
| STRN4 | -0.13 | 0.25 | 0.03 | -0.65 | inactive |

Entries listed so far whose gene name begins with B or b:
| gene symbol | mean z-score | z-score, replicate A | z-score, replicate B | z-score, replicate C | activity call |
| --- | --- | --- | --- | --- | --- |
| BBC3 | -0.44 | -0.44 | -0.43 | -0.44 | inactive |
| B3GLCT | -0.14 | -0.1 | -0.33 | 0 | inactive |

The listing continues.
| gene symbol | mean z-score | z-score, replicate A | z-score, replicate B | z-score, replicate C | activity call |
| --- | --- | --- | --- | --- | --- |
| FLJ41170 (retired record) | 0.34 | 0.02 | 0.53 | 0.45 | inactive |
| LGR5 | 0.06 | -0.19 | 0.48 | -0.11 | inactive |
| ZNF81 | 0.08 | -0.05 | 0.15 | 0.14 | inactive |
| MDC1 | 0.64 | 0.65 | 0.6 | 0.68 | inactive |
| ARHGAP45 | -0.86 | -1.03 | -0.73 | -0.81 | inactive |
| COX16 | -0.03 | -0.07 | -0.5 | 0.47 | inactive |
| PCYOX1L | -0.01 | 0.01 | -0.01 | -0.01 | inactive |
| DUSP29 | -0.32 | -0.22 | -0.16 | -0.6 | inactive |
| LINC01879 | 1.22 | 0.99 | 1.31 | 1.36 | inactive |
| POU1F1 | 1.24 | 0.9 | 1.13 | 1.7 | inactive |
| CDK17 | 1.48 | 1.37 | 1.42 | 1.66 | inactive |
| GPR4 | 0.74 | 0.79 | 0.92 | 0.5 | inactive |
| TMPRSS11BNL | -0.52 | -0.79 | -0.55 | -0.22 | inactive |
| RSPH14 | 0.17 | 0.08 | 0 | 0.42 | inactive |
| MACIR | 0.09 | 0.03 | 0.13 | 0.11 | inactive |
| F2RL2 | 0.19 | 0.6 | 0.04 | -0.08 | inactive |
| MIS18BP1 | 1.33 | 1.22 | 1.25 | 1.52 | inactive |
| NSUN3 | 1.29 | 1.03 | 1.29 | 1.56 | inactive |
| GMFG | 0.52 | 0.43 | 1 | 0.12 | inactive |
| GOLGA5 | 0.96 | 1.28 | 0.76 | 0.83 | inactive |
| CHKA | -1.15 | -1.49 | -0.92 | -1.04 | inactive |
| TRIB2 | -0.51 | -0.63 | -0.26 | -0.64 | inactive |
